The target in the series is T1, rPruR (AraC/XylS family regulator) (Pseudomonas aeruginosa PAK) (UniProt Q9I5F8).
T1 sequence (looked up, limits assumed): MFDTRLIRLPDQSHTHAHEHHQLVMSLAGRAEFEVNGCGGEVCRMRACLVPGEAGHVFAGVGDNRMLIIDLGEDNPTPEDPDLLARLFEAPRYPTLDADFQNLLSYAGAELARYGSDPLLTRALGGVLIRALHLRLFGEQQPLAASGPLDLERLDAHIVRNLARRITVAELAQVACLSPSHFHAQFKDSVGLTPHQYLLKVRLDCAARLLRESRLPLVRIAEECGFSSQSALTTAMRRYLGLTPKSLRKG
Briefly: EMSA. The following applies: 50 mM Tris pH 7.9, 50 mM NaCl, 0.5 mM EDTA, 10% glycerol, 1% NP-40, 25 C, 10 min; 50 ng DNA, 2 ug rPruR in 20 ul; 8% native PAGE in TBE on ice (EMSA); recombinant protein; protein details: His tag (pET-28a(+)); probe letters rebuilt from the primers and the genome. On the technique in general: Mobility shift assays separate free from complexed probe on a gel.

Construct, isoform or probe ends are uncertain for at least one entry. Where a protein sequence is shown, tags need not be part of it.

Take “ATCGGCGTATTTATTGGGATGTTATATTATTTCTTTTTGTGTCGGTAGACCCGCGTAGCCACTCTGCATGGCGTCGTGCCGACGTGCAGCGGCAATGTCCGCATGCCTGCCGGCGAAGAGGAACGGGAAAGTTCCGCAGCCAGGAGTTTTCCGCAAAAACTCCAGAGTCTTTCGCAAGAATCGCCCCTCTCGCAGCCACTACATTCCGCTATCCGCTGGTGCCTCGCGCCGGCGGAATGGGCCTGACCCATACTGATCCGTATTCCCGCGCCACAGGACGTGCCGCGCCGCCGGCACAACCCGCCGGCGGCGGTGCCCCGGGCAATGGACGCCTGGCCGGACTTCTTTCAATAACAATGGCTCCACAAGAGGAGGGCGTG (double strand) [putA promoter F2]”: the binding result is “binds”.
The entry for “CACGCCCTCCTCTTGTGGAGCCATTGTTATTGAAAGAAGTCCGGCCAGGCGTCCATTGCCCGGGGCACCGCCGCCGGCGGGTTGTGCCGGCGGCGCGGCACGTCCTGTGGCGCGGGAATACGGATCAGTATGGGTCAGGCCCATTCCGCCGGCGCGAGGCACCAGCGGATAGCGGAATGTAGTGGCTGCGAGAGGGGCGATTCTTGCGAAAGACTCTGGAGTTTTTGCGGAAAACTCCTGGCTGCGGAACTTTCCCGTTCCTCTTCGCCGGCAGGCATGCGGACATTGCCGCTGCACGTCGGCACGACGCCATGCAGAGTGGCTACGCGGGTCTACCGACACAAAAAGAAATAATATAACATCCCAATAAATACGCCGATCCGACCCCGTCGCCCTTCCTCCGGGAAGGGCCTGGGTTCGCTTTGGCCTGAAAAAAGTCCGACCCATGACCATGGAGCCCGCAATGTCCTCTTCCGGCCTTTTCCCTTCCCGTCCGCTCTGGCCTCTCACGCCACTGGCGCTGGCCTGCCTGATTGTTTCGGGGGAA (double strand) [putA promoter F1]” is “binds”.

The values above are taken from publication PMC5879082, “PutA Is Required for Virulence and Regulated by PruR in Pseudomonas aeruginosa”.
